Results deposited as PubChem BioAssay AID624099 (ICCB-Longwood, 2012)
Assay: 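Host factors E2 relies on to silence an HPV18 LCR reporter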 (primary screen). Cells: human C33A cervical carcinoma cells (HPV-negative) stably expressing BPV1 E2 and an HPV18 LCR luciferase reporter. Knock-down reagent: siRNA pool against human genes, 40 nM. Timing: 72 h. Measurement: 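Per-well luciferase luminescence, z-scored on each plate against the plate mean and SD with control wells left out, then averaged across three replicate plates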. Scale: mean z-score and z-score: higher = stronger reporter signal, weaker E2 silencing. Rule for the call: 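Hit if mean z-score reaches 2 and two or more of three replicate z-scores also reach 2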.
In all, the deposit lists about 21,000 reagents; this is a part drawn at random. 497 of them (2.4%) were called active. 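Higher z means weaker E2 silencing; only reporter increases were scored, and knock-downs that hurt cell survival may mask genuine repressor factors.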 Unmarked entries are inactive. Reagents against one gene are numbered here.

CD177 scored mean z-score 0.63; z-score, replicate A = 0.93; z-score, replicate B = 0.46; z-score, replicate C = 0.52.
Knock-down of ALCAM came out at: mean z-score 0.54; z-score, replicate A = 0.28; z-score, replicate B = 0.84; z-score, replicate C = 0.49.
CSTF2T showed mean z-score 0.07; z-score, replicate A = 0.1; z-score, replicate B = -0.07; z-score, replicate C = 0.17.
Against ALPK3, the entry reads mean z-score 1.78; z-score, replicate A = 1.69; z-score, replicate B = 1.82; z-score, replicate C = 1.83.
KLHL8 showed mean z-score 0.42; z-score, replicate A = 0.87; z-score, replicate B = 0.29; z-score, replicate C = 0.1.
Silencing of LOC132870 (retired record) resulted in: mean z-score 1.01; z-score, replicate A = 1.12; z-score, replicate B = 0.97; z-score, replicate C = 0.94.
Against H1-0 the deposit lists mean z-score -0.23; z-score, replicate A = 0.28; z-score, replicate B = -0.5; z-score, replicate C = -0.47.
SULF1 scored mean z-score 0.6; z-score, replicate A = 0.46; z-score, replicate B = 0.64; z-score, replicate C = 0.7.
Silencing of INPP5E resulted in: mean z-score -0.15; z-score, replicate A = 0.15; z-score, replicate B = -0.16; z-score, replicate C = -0.43.
Silencing of C20orf202 came out at: mean z-score 0.37; z-score, replicate A = 0.48; z-score, replicate B = 0.37; z-score, replicate C = 0.25.
After knock-down of SLC12A6, the record shows mean z-score -0.5; z-score, replicate A = -0.36; z-score, replicate B = -0.62; z-score, replicate C = -0.52.
Silencing of S100A7 resulted in: mean z-score 0.79; z-score, replicate A = 0.53; z-score, replicate B = 0.7; z-score, replicate C = 1.12.
After knock-down of SNX8, the screen gave mean z-score -0.88; z-score, replicate A = -0.72; z-score, replicate B = -0.71; z-score, replicate C = -1.22.
LILRA6 gave mean z-score 1.55; z-score, replicate A = 1.73; z-score, replicate B = 1.23; z-score, replicate C = 1.67.
With knock-down of ZKSCAN8, the screen gave mean z-score 0.51; z-score, replicate A = 0.28; z-score, replicate B = 0.72; z-score, replicate C = 0.53.
CALB1 scored mean z-score 0.83; z-score, replicate A = 0.66; z-score, replicate B = 0.95; z-score, replicate C = 0.88.
GPR157 #1 gave mean z-score -0.73; z-score, replicate A = -0.82; z-score, replicate B = -0.47; z-score, replicate C = -0.89.
After knock-down of GPR157 #2, the record shows mean z-score -0.98; z-score, replicate A = -1.22; z-score, replicate B = -0.71; z-score, replicate C = -1.01.
For ALX3, the values are mean z-score -1.29; z-score, replicate A = -1.62; z-score, replicate B = -1.06; z-score, replicate C = -1.17.
Against BACC1, the entry reads mean z-score 0.01; z-score, replicate A = 0.15; z-score, replicate B = -0.2; z-score, replicate C = 0.08.
Against SLC35G2, the entry reads mean z-score 0.33; z-score, replicate A = 0.18; z-score, replicate B = 0.6; z-score, replicate C = 0.19.
For DCAF4L2, the entry reads mean z-score 1.11; z-score, replicate A = 0.97; z-score, replicate B = 1.04; z-score, replicate C = 1.31.
With knock-down of RNF149 the results were mean z-score -1.48; z-score, replicate A = -1.73; z-score, replicate B = -1.29; z-score, replicate C = -1.42.
Knock-down of PTPRO resulted in: mean z-score -0.04; z-score, replicate A = 0.02; z-score, replicate B = -0.07; z-score, replicate C = -0.07.
Silencing of FIGN gave: mean z-score -1.26; z-score, replicate A = -1.51; z-score, replicate B = -1.48; z-score, replicate C = -0.79.
Depletion of ASAH1 gave: mean z-score 0.02; z-score, replicate A = 0.08; z-score, replicate B = 0.23; z-score, replicate C = -0.26.
For TFDP1 the deposit lists mean z-score -0.19; z-score, replicate A = 0.03; z-score, replicate B = -0.24; z-score, replicate C = -0.36.

2 of these entries, set out differently.
{"gene symbol":"FIGN","reagent no.":1,"mean z-score":-1.26,"z-score, replicate A":-1.51,"z-score, replicate B":-1.48,"z-score, replicate C":-0.79}
{"gene symbol":"ASAH1","reagent no.":1,"mean z-score":0.02,"z-score, replicate A":0.08,"z-score, replicate B":0.23,"z-score, replicate C":-0.26}
